Tests used:
L-6 cells = assay: Resazurin-based in vitro cytotoxicity with L-6 cells; type: cell-based, rat; settings: selectivity index L-6 vs P.f.NF54
Description: Serial drug dilutions of eleven 3-fold dilution steps covering a range from 100 to 0.002 µg/mL were prepared. After 70 h of incubation, the plates were inspected under an inverted microscope to assure growth of the controls and sterile conditions. […] The plates were read with a Spectramax Gemini XS microplate fluorometer (Molecular Devices Cooperation, Sunnyvale, CA, USA) using an excitation wavelength of 536 nm and an emission wavelength of 588 nm. IC50 values were calculated by linear regression from the sigmoidal dose–inhibition curves using SoftmaxPro software Version 8.2.1 (Molecular Devices Cooperation, Sunnyvale, CA, USA). Podophyllotoxin (Sigma P4405) was used as control.

HepG2 cells = assay: Resazurin-based in vitro cytotoxicity with HepG2 cells; type: cell-based, human; settings: selectivity index HepG2 vs P.f.NF54
Description: The HepG2 cells were washed with DPBS (Dulbecco’s PBS without calcium and magnesium, Gibco, Cat #21600-044) and trypsinized with trypsin solution in DPBS. Trypsinization was stopped by adding culture medium, and after being stained with Trypan Blue (SORS Ukraine) cells were counted using a counting chamber (Hausser Scientific, Cat #3500). The cell suspension was placed in a falcon tube containing plating medium DMEM/High glucose with 1% fetal bovine serum, 100 units/mL penicillin, and 100 µg/mL streptomycin. Cells at a density of 250,000 cells/mL were seeded in sterile 384-well plates (Greiner Bio-One, Cat #781091) in a volume of […] and incubated at 37 °C and 5% CO2. Serial dilutions of ten 3-fold dilution steps of test and reference compounds covering a range from 100.0 to 0.005 µM were added to the wells, followed by incubation at 37 °C and 5% CO2 for 48 h. Then, resazurin (50 µM final concentration) was added and plates were incubated for another 3 h. The plates were read with a SpectraMax microplate reader (Molecular Devices Cooperation, Sunnyvale, CA, USA)) using an extinction wavelength of 555 nm and an emission wavelength of 570 nm. IC50 values were calculated using GraphPad Prism 9.0 charting software. Doxorubicin (Sigma Aldrich D1515) was used as control.

2-(4-Fluorophenoxy)-N-[4-(pyrrolidin-4-yl)phenyl]-3-(trifluoromethyl)benzamide [Compound 34]
S.I. = IC50 (Cyt. L-6)/ IC50 (P.f.NF54) (L-6 cells): 110
S.I. = IC50 (Cyt. HepG2)/IC50 (P.f.NF54) (HepG2 cells): 23.7

CCN(CC)CCCC(C)Nc1ccnc2cc(Cl)ccc12 (stereo not drawn) [CQ, chloroquine, reference compound]
S.I. = IC50 (Cyt. L-6)/ IC50 (P.f.NF54) (L-6 cells): 9672

CN1CCN(c2ccccc2NC(=O)c2cccc(C(F)(F)F)c2Oc2ccc(F)cc2)CC1 [Compound 31, 2-(4-Fluorophenoxy)-N-[2-(4-methylpiperazin-1-yl)phenyl]-3-(trifluoromethyl)benzamide]
S.I. = IC50 (Cyt. L-6)/ IC50 (P.f.NF54) (L-6 cells): 8.59

O=C(Nc1ccccc1N1CCOCC1)c1cccc(C(F)(F)F)c1Oc1ccc(F)cc1 [Compound 32, 2-(4-Fluorophenoxy)-N-[2-(morpholin-4-yl)phenyl]-3-(trifluoromethyl)benzamide]
S.I. = IC50 (Cyt. L-6)/ IC50 (P.f.NF54) (L-6 cells): 53.0
S.I. = IC50 (Cyt. HepG2)/IC50 (P.f.NF54) (HepG2 cells): >32.9

O=C(Nc1ccc(N2CCOCC2)cc1)c1cccc(C(F)(F)F)c1Oc1ccc(F)cc1 [Compound 33, 2-(4-Fluorophenoxy)-N-[4-(morpholin-4-yl)phenyl]-3-(trifluoromethyl)benzamide]
S.I. = IC50 (Cyt. L-6)/ IC50 (P.f.NF54) (L-6 cells): 28.7
S.I. = IC50 (Cyt. HepG2)/IC50 (P.f.NF54) (HepG2 cells): 5.18

CN(C)c1ccccc1NC(=O)c1cccc(C(F)(F)F)c1Oc1ccc(F)cc1 [Compound 35, N-[2-(Dimethylamino)phenyl]-2-(4-fluorophenoxy)-3-(trifluoromethyl)benzamide]
S.I. = IC50 (Cyt. L-6)/ IC50 (P.f.NF54) (L-6 cells): 5.70

CN(C)c1ccc(NC(=O)c2cccc(C(F)(F)F)c2Oc2ccc(F)cc2)cc1 [Compound 36, N-[4-(Dimethylamino)phenyl]-2-(4-fluorophenoxy)-3-(trifluoromethyl)benzamide]
S.I. = IC50 (Cyt. L-6)/ IC50 (P.f.NF54) (L-6 cells): 31.5
S.I. = IC50 (Cyt. HepG2)/IC50 (P.f.NF54) (HepG2 cells): >13.2

CN1CCN(C(=O)c2cccc(C(F)(F)F)c2Oc2ccc(F)cc2)CC1 [Compound 49, [2-(4-Fluorophenoxy)-3-(trifluoromethyl)phenyl](4-methylpiperazin-1-yl)methanon]
S.I. = IC50 (Cyt. L-6)/ IC50 (P.f.NF54) (L-6 cells): 2.48
S.I. = IC50 (Cyt. HepG2)/IC50 (P.f.NF54) (HepG2 cells): >1.81

CC(C)(C)OC(=O)N1CCN(C(=O)c2cccc(C(F)(F)F)c2Oc2ccc(F)cc2)CC1 [Compound 50, tert-Butyl-4-[2-(4-fluorophenoxy)-3-(trifluoromethyl)benzoyl]piperazine-1-carboxylate]
S.I. = IC50 (Cyt. L-6)/ IC50 (P.f.NF54) (L-6 cells): 0.80
S.I. = IC50 (Cyt. HepG2)/IC50 (P.f.NF54) (HepG2 cells): 0.68

O=C(c1cccc(C(F)(F)F)c1Oc1ccc(F)cc1)N1CCOCC1 [Compound 51, [2-(4-Fluorophenoxy)-3-(trifluoromethyl)phenyl](morpholin-4-yl)methanon]
S.I. = IC50 (Cyt. L-6)/ IC50 (P.f.NF54) (L-6 cells): 1.89
S.I. = IC50 (Cyt. HepG2)/IC50 (P.f.NF54) (HepG2 cells): >1.23

O=C(c1cccc(C(F)(F)F)c1Oc1ccc(F)cc1)N1CCNCC1 [Compound 52, [2-(4-Fluorophenoxy)-3-(trifluoromethyl)phenyl](piperazin-1-yl)methanon]
S.I. = IC50 (Cyt. L-6)/ IC50 (P.f.NF54) (L-6 cells): 5.85
S.I. = IC50 (Cyt. HepG2)/IC50 (P.f.NF54) (HepG2 cells): >4.32

O=C(Nc1ccccc1N1CCNCC1)c1cccc(C(F)(F)F)c1Oc1ccc(F)cc1 [Compound 53, 2-(4-Fluorophenoxy)-N-[2-(piperazin-1-yl)phenyl]-3-(trifluoromethyl)benzamide]
S.I. = IC50 (Cyt. L-6)/ IC50 (P.f.NF54) (L-6 cells): 13.0
S.I. = IC50 (Cyt. HepG2)/IC50 (P.f.NF54) (HepG2 cells): 3.94

CC(=O)Nc1ccc(Oc2c(C(=O)Nc3ccccc3N3CCNCC3)cccc2C(F)(F)F)cc1 [Compound 54, 2-(4-Acetamidophenoxy)-N-[2-(piperazin-1-yl)phenyl]-3-(trifluoromethyl) benzamide]
S.I. = IC50 (Cyt. L-6)/ IC50 (P.f.NF54) (L-6 cells): 1.19

O=C(Nc1ccccc1N1CCNCC1)c1cccc(C(F)(F)F)c1Sc1ccc(F)cc1 [Compound 55, 2-[(4-Fluorophenyl)sulfanyl]-N-[2-(piperazin-1-yl)phenyl]-3-(trifluoromethyl)benz-amide]
S.I. = IC50 (Cyt. L-6)/ IC50 (P.f.NF54) (L-6 cells): 10.2
S.I. = IC50 (Cyt. HepG2)/IC50 (P.f.NF54) (HepG2 cells): 6.65

O=C(Nc1cccc(N2CCNCC2)c1)c1cccc(C(F)(F)F)c1Oc1ccc(F)cc1 [Compound 56, 2-(4-Fluorophenoxy)-N-[3-(piperazin-1-yl)phenyl]-3-(trifluoromethyl)benzamide]
S.I. = IC50 (Cyt. L-6)/ IC50 (P.f.NF54) (L-6 cells): 6.27
S.I. = IC50 (Cyt. HepG2)/IC50 (P.f.NF54) (HepG2 cells): 2.33

O=C(Nc1ccc(N2CCNCC2)cc1)c1cccc(C(F)(F)F)c1Oc1ccc(F)cc1 [Compound 57, 2-(4-Fluorophenoxy)-N-[4-(piperazin-1-yl)phenyl]-3-(trifluoromethyl)benzamide]
S.I. = IC50 (Cyt. L-6)/ IC50 (P.f.NF54) (L-6 cells): 11.9
S.I. = IC50 (Cyt. HepG2)/IC50 (P.f.NF54) (HepG2 cells): 3.30

O=C(Nc1ccc(N2CCNCC2)cc1)c1cccc(C(F)(F)F)c1Oc1ccccc1 [Compound 58, 2-Phenoxy-N-[4-(piperazin-1-yl)phenyl]-3-(trifluoromethyl)benzamide]
S.I. = IC50 (Cyt. L-6)/ IC50 (P.f.NF54) (L-6 cells): 6.79
S.I. = IC50 (Cyt. HepG2)/IC50 (P.f.NF54) (HepG2 cells): 1.52

O=C(Nc1ccc(N2CCNCC2)cc1)c1ccccc1Oc1ccc(F)cc1 [Compound 59, 2-(4-Fluorophenoxy)-N-[4-(piperazin-1-yl)phenyl]benzamide]
S.I. = IC50 (Cyt. L-6)/ IC50 (P.f.NF54) (L-6 cells): 12.5
S.I. = IC50 (Cyt. HepG2)/IC50 (P.f.NF54) (HepG2 cells): 19.1

O=C(Nc1ccc(N2CCNCC2)cc1)c1cccc(F)c1Oc1ccc(F)cc1 [Compound 60, 3-Fluoro-2-(4-fluorophenoxy)-N-[4-(piperazin-1-yl)phenyl]benzamide]
S.I. = IC50 (Cyt. L-6)/ IC50 (P.f.NF54) (L-6 cells): 8.68
S.I. = IC50 (Cyt. HepG2)/IC50 (P.f.NF54) (HepG2 cells): 5.57

O=C(Nc1ccc(N2CCNCC2)cc1)c1cccc([N+](=O)[O-])c1Oc1ccc(F)cc1 [Compound 61, 2-(4-Fluorophenoxy)-3-nitro-N-[4-(piperazin-1-yl)phenyl]benzamide]
S.I. = IC50 (Cyt. L-6)/ IC50 (P.f.NF54) (L-6 cells): 10.7
S.I. = IC50 (Cyt. HepG2)/IC50 (P.f.NF54) (HepG2 cells): 7.27

O=C(Nc1ccc(N2CCNCC2)cc1)c1cccc(C(F)(F)F)c1Sc1ccc(F)cc1 [Compound 62, 2-[(4-Fluorophenyl)sulfanyl]-N-[4-(piperazin-1-yl)phenyl]-3-(trifluoromethyl)benz-amide]
S.I. = IC50 (Cyt. L-6)/ IC50 (P.f.NF54) (L-6 cells): 7.88
S.I. = IC50 (Cyt. HepG2)/IC50 (P.f.NF54) (HepG2 cells): 5.59

CC(=O)Nc1ccc(Oc2c(C(=O)Nc3ccc(N4CCNCC4)cc3)cccc2C(F)(F)F)cc1 [Compound 63, 2-(4-Acetamidophenoxy)-N-[4-(piperazin-1-yl)phenyl]-3-(trifluoromethyl)benzamide]
S.I. = IC50 (Cyt. L-6)/ IC50 (P.f.NF54) (L-6 cells): 7.24

O=C(Nc1ccc(N2CCNCC2)cc1)c1ccccc1Oc1ccccc1 [Compound 64, 2-Phenoxy-N-[4-(piperazin-1-yl)phenyl]benzamide]
S.I. = IC50 (Cyt. L-6)/ IC50 (P.f.NF54) (L-6 cells): 17.4
S.I. = IC50 (Cyt. HepG2)/IC50 (P.f.NF54) (HepG2 cells): 5.28

Nc1cccc(C(=O)Nc2ccc(N3CCNCC3)cc2)c1Oc1ccc(F)cc1 [Compound 65, 3-Amino-2-(4-fluorophenoxy)-N-[4-(piperazin-1-yl)phenyl]benzamide]
S.I. = IC50 (Cyt. L-6)/ IC50 (P.f.NF54) (L-6 cells): 22.4
S.I. = IC50 (Cyt. HepG2)/IC50 (P.f.NF54) (HepG2 cells): >14.3

O=C(Nc1ccc(N2CCNCC2)cc1)c1cccc(C(F)(F)F)c1 [Compound 66, N-[4-(Piperazin-1-yl)phenyl]-3-(trifluoromethyl)benzamide]
S.I. = IC50 (Cyt. L-6)/ IC50 (P.f.NF54) (L-6 cells): 16.0
S.I. = IC50 (Cyt. HepG2)/IC50 (P.f.NF54) (HepG2 cells): 4.55

Source: PMC12298624, “Anti-Infective Properties, Cytotoxicity, and In Silico ADME Parameters of Novel 4′-(Piperazin-1-yl)benzanilides” (Pharmaceuticals, 2025)
